Tested on: Nc1ncnc2c1ncn2[C@@H]1O[C@H](COP(=O)(O)OP(=O)(O)OP(=O)(O)O)[C@@H](O)[C@H]1O
Assay: purified protein

Q: For “MABP-1 (Rv3197) (Mycobacterium tuberculosis H37Rv)”, which Km is on record?
A: 285 µM

— PMC6208485, “Discovery of the first macrolide antibiotic binding protein in Mycobacterium tuberculosis: a new antibiotic resistance drug target” (Protein & Cell, 2018)
